Construct, isoform or probe ends are uncertain for at least one entry. For some of these results: Tags and fusion partners may be left off the protein sequences shown.
Legend:
RamA = target: T1, RamA (UniProt Q48413); test: EMSA; details: 200 nM RamA, 2 nM DNA; recombinant protein; protein details: His-tag; label: 32P 5' end; probe letters rebuilt from the primers and the genome
T1 sequence (looked up, limits assumed): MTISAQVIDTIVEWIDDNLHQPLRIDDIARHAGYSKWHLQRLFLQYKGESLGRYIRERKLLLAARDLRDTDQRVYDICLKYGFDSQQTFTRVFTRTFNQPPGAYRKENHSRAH

Amino acid sequences for entries named in this document (tags omitted). A change or cut given only in a name is not applied to a line headed by its entry.
UniProt A0A0H3GJQ8: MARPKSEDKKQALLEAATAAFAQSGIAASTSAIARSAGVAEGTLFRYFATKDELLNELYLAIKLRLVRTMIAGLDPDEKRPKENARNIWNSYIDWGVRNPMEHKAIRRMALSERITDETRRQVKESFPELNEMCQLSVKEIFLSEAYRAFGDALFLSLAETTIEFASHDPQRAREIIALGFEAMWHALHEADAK

RamR = RamR (UniProt A0A0H3GJQ8); test: EMSA; details: 2 uM RamR, 2 nM pI, shift not perturbed by 1 uM cold sRamA5; recombinant protein; label: 32P (radiolabelled); probe letters rebuilt from the primers and the genome

| Sequence | binding result (RamA) | binding result (RamR) |
| --- | --- | --- |
| CGTTGGGGAATTTTGCCCGATACTCAATTTCGAGATCGCTAATACTGGCGTCTGACAGCTCCCAAATTTCGTTGAATAAATCTGATTTATTCTTGAAATGCCAGTAGATAGCCCCCCTCGTTACACCCGCAGCTTTTGCAATTGTTGCCAACGAGGTAGATGATACGCCTTGCTGCGAAAACAGACGCAGAGCAACATCCAGAATCAGTTGCCGGGTTTCACGTGCCTGTTGTTTGGTTTTTCGTGCCATAGGTTAATGACTTTACAGAGGTTACGTTTACATACATTTGTGAATGTATGTACCATAGCATGACCATAATAGAAAGACTGTAGTGGGTTTGTGGTTGTTTGAGCCACTGAACATTTTGAAATTGGACACTCGAGGTTTACATATGAACAAAAACAGAGGGTTAACGCCTCTGGCGGTCGTTCTGATGCTCTCAGGCAGC (double strand) [acrA promoter] | binds | – |
| GCTCTAGACTACTTTTTTCCTCACGCAGGTTTAAACAAACCGCCGATCTTGGCACGTCTGACCAGGTCGCTGCAACGGCGGAACGCAAAAATTGAAAATCGTCTTGACGACTTTCATCGCTTTCCTAATAATGAGTGCGTACTCACTCATAATCAAGTTATATCATAAAGCCTCCGGGATGGGGGCTTTTGTCTGGTCAGGATATGAACCGTGTCACTTTCAGCGTGGTCGCCATCATGTTACTCGCAGCAGCAACGACATTGCCGTTTGTTCTTAATGCCGGTTTTGGTAAGGCGCCGCAGGG (double strand) [pI promoter (romA-ramA)] | – | binds |
| GGCAGTCAGCTTTTTCGTGGCGTCAAAGGCCTTGGTGGAATAGCGCTTCAAAGCGACCGATACGATATCCATAACTCTTCCTCACAGTTTACAGCACCTTACCGGTGCGTTCAGGAGAGGAAGAGTACAGCGAAGATCGCAAAATGATAAGGGTGAAAAATGCGATAACACTTATCGCATTTGGCTGAAAATCAGCGCGGACGCAGGCGCTGCTGGGCCTTTTTACTCAGCTTGTTCACCACCTGATGCCACGAATCGTCAATCAGCTCGGCCAGCAGATCCTCGCTGATATCCTCTCCTGGCACCACCGTGATCCAGTGTTTCTTGTTCATATGGTAGCCGGGTTCGATACTGCGATAAATTTGCTGATTCAGCAGCGACTTCTGCGGCTCGGCCTTGAGATTGACCAGCGCCCGGCCGCGAATAGTCATGGTGATCATAAAGATGCGGCCGTCG (double strand) [nfnB promoter] | binds | – |
| TTAAACTTTGCCCCAGTCACAAATAACCGCATGCTGGCCGTGTCAAACCGGGCGAAACGGACTGTTTGCGTTCGCTATCGCCATAATAAAGCGTGAGTAAAAGAGGTATTGGTCGAGAGGCTGAGGCAAATGTACTGGCTATTTTATCGACAATCGGCCGGGCCGTAGAGGTTAGGTTTATTTATTTATGCATTAAACAGGAAATTTTACGCGTTGCGTCTAATAATAGAGTAGTCCCCAGCGTAAGGGCTGAATTTATCCTGGAATCGGCTTATAATAACGCGCTTTGTGATTGAGTATTACCGCACGAATTGGAAAAATACTACGTGCAGGATCCGCTACTTTATTTCGCGGTTTTTGCTCAGCTATTATTGAGTGAATTAACAGGATTACTATGTCAAATTTACCCAAATTTTCCCGCGCGCTGTTGCACCCGCGTTACTGGCTATTGTGGCTGGGAATTGGCTTTTTGTGGCTGCTGGTGCAATTACCGTATCCGGT (double strand) [lpxL-2 promoter] | binds | – |

From article PMC4310594
